Pooled drug test results. Numbers come from NIAID ChemDB, via PubChem.

All rows: tests in culture; species: Hepatitis B virus

An empty or dashed field is not shown. Lines come from different laboratories, so protocols vary. ECn: concentration that inhibits the pathogen or its effect by n%. a–b is a range or a potency band.

structure | cell line | read-out | read by | strain | value
C[C@]1(CO)CO[C@H](n2cnc3c(N)ncnc32)C1 | - | EC50 | - | - | >100 µM
COC(=O)C(C)(C)NP(=O)(OC[C@H]1O[C@@H](n2cnc3c(N)ncnc32)CC1F)Oc1ccccc1 | HepG2 2.2.15 | EC50 | - | - | 0.007 µM
CC(=O)OCCNC(=O)C(=O)N1CC[C@@H](NS(=O)(=O)c2cn(C)c(C(=O)Nc3cc(F)c(F)c(F)c3)c2F)C1 | HepAD38 cells | EC50 | PCR | - | <0.1 µM
O=C(NC1CC2(C1)CC(c1nc3cc(Cl)ccc3o1)C2)C1CCS(=O)(=O)CC1 | - | EC50 | - | - | 6.7 µg/mL
Cc1c([N+](=O)[O-])c(=O)[nH]c(=O)n1COCCO | B1 | EC50 | - | Mutation M204I | 25 µM
Cc1c(Br)c(=O)[nH]c(=O)n1COC(CO)CO | B1 | EC50 | - | Mutant M204I | 51 µg/mL
Nc1nc2c(ncn2C[C@H]2C[C@H]2CO)c(=O)[nH]1 | 2.2.15 | EC50 | - | - | >10 µM
COc1ccc([C@@H](C)NC(=O)c2c3n(c(=O)n2-c2ccc(-n4cccn4)cc2)CCN(C(=O)c2ccc(Br)c(Cl)c2)C3)c(F)c1 | HepG2.117 | EC50 | PCR | - | <0.1 µM
CN1CC(c2ccnn2C)Cn2nc3c(c2C1=O)CN(C(=O)Nc1ccc(F)c(C#N)c1)CC3 | HepG2.2.15 | EC50 | fluorescence | - | 83 µM
O=c1[nH]c(=O)n(COCCO)cc1CO | D88 | EC50 | - | Mutations L180M M204V | 30 µM
O=c1ccn(C[C@H]2C[C@H]2[C@H](O)CO)c(=O)[nH]1 | 2.2.15 | EC50 | - | - | >10 µM
C[C@]1(CO)CO[C@H](n2cnc3c(=O)[nH]c(F)nc32)C1 | - | EC50 | - | - | >100 µM
Cc1c(I)c(=O)[nH]c(=O)n1COCCO | D88 | EC50 | - | Mutations L180M M204V | 25 µM
COc1ccc(-n2c(C(=O)NCc3cc(OC)cc(OC)c3)c3n(c2=O)CCN(C(=O)c2ccc(Br)c(Cl)c2)C3)cc1 | HepG2.117 | EC50 | PCR | - | 0.1–0.5 µM
Cc1cc(C)n(-c2nc3c(c(=O)n2-c2ccc(NC[C@H](O)CO)nc2)C[C@@H](C)N(C(=O)c2ccc(Br)c(C(F)(F)F)c2)C3)n1 | HepG2.117 | EC50 | PCR | Genotype D | 0.05–0.5 µM
Nc1nc(N)c2ncn([C@H]3CO[C@@H](CO)O3)c2n1 | AD38 | EC90 | - | Wild | 113 µM
COC1OC(Cn2cc(C)c(=O)nc2SC)C(O)C1O | HepG2 2.2.15 | EC50 | ELISA | - | 90 µM
COC(=O)C1=C(CN2CCN(C(=O)OC)CC2)NC(c2ncc(F)cc2F)=NC1c1ccc(Cl)cc1Cl | HepG2.2.15 | EC50 | - | - | 0.08 µM
C[C@@H]1CN(c2ccc(-n3c(C(=O)NCc4ccccc4)c4n(c3=O)CCN(C(=O)c3ccc(Br)c(Cl)c3)C4)cc2)CCO1 | HepG2.117 | EC50 | PCR | - | 0.1–0.5 µM
C[C@@H](c1cnc([C@@]2(F)CN(C(=O)c3ccc(Br)c(Cl)c3)CCS2(=O)=O)s1)c1ccccc1F | HepG2.117 | EC50 | PCR | - | <0.1 µM
CCOC(=O)[C@H](C)NP(=O)(OC[C@@H]1OC[C@H](n2cnc3c(OC)nc(N)nc32)O1)Oc1ccccc1 | AD38 | EC90 | - | Wild | 2.2 µM
COc1ccc(-n2c(C(=O)N[C@H](C(N)=O)c3ccccc3)c3n(c2=O)CCN(C(=O)c2ccc(Br)c(Cl)c2)C3)cc1 | HepG2.117 | EC50 | PCR | - | >5 µM
Cc1cc(C)n(-c2nc3c(c(=O)n2-c2ccc(OC[C@H](C)OP(=O)(O)O)cc2)C[C@@H](C)N(C(=O)c2ccc(Br)c(C(F)(F)F)c2)C3)n1 | HepG2.117 | EC50 | PCR | Genotype D | 0.05–0.5 µM
O=C(Nc1ccc(F)c(Cl)c1)N1CCS(=O)(=O)[C@H](c2ccccc2)C1 | HepG2.117 | EC50 | PCR | - | 0.5–5 µM
CCOC(=O)[C@H](C)NP(=O)(OC[C@@H]1OC[C@H](n2cnc3c(NC4CC4)nc(N)nc32)O1)Oc1ccccc1 | AD38 | EC90 | - | Wild | <10 µM
CCCc1cc(=O)nc(SC)n1CC1OC(OC)C(O)C1O | HepG2 2.2.15 | EC50 | ELISA | - | >100 µM
C[C@@H]1Cc2nn3c(c2CN1C(=O)Nc1ccc(F)c(C(F)(F)F)c1)C(=O)N(C)C[C@@H](c1ccn[nH]1)C3 | HepG2.2.15 | EC50 | fluorescence | - | 280 µM
COC(=O)C1=C(CN2CCN(C(=O)OC(C)(C)C)CC2)NC(c2ncc(F)cc2F)=N[C@H]1c1ccc(F)cc1Cl | HepG2.2.15 | EC50 | - | - | 0.04 µM
Cc1cc(Cl)ccc1C(=O)N1CCS(=O)(=O)[C@H](c2cccs2)C1 | HepG2.117 | EC50 | PCR | - | >5 µM
COC1OC(CSc2nc(C)cc(=O)[nH]2)C(O)C1O | HepG2 2.2.15 | EC50 | ELISA | - | >100 µM
O=c1[nH]cnc2c1ncn2C[C@H]1C[C@H]1CO | 2.2.15 | EC50 | - | - | >10 µM
O=c1[nH]c(=O)n(COCCO)cc1Br | D88 | EC50 | - | Mutations L180M M204V | 73 µM
COC(=O)C1=C(CN2CCN(C(=O)Oc3ccccc3)CC2)NC(c2ncc(F)cc2F)=N[C@H]1c1ccc(F)cc1Br | HepG2.2.15 | EC50 | - | - | 0.05 µM
C[C@H](NC(=O)c1c2n(c(=O)n1-c1ccc(OC3CC3)cc1)CCN(C(=O)c1ccc(Br)c(Cl)c1)C2)c1ccc(C#N)cc1F | HepG2.117 | EC50 | PCR | - | 0.1–0.5 µM
CNS(=O)(=O)N1CC[C@@H](NS(=O)(=O)c2cn(C)c(C(=O)Nc3cc(F)c(F)c(F)c3)c2F)C1 | HepAD38 cells | EC50 | PCR | - | <0.1 µM
Cn1cnc(-c2ccc([C@H]3CN(C(=O)c4ccc(Br)c(Cl)c4)CCS3(=O)=O)s2)c1 | HepG2.2.15 | EC50 | PCR | - | 0.5–5 µM
O=c1[nH]c(=O)n(COCCO)cc1C(F)(F)F | B1 | EC50 | - | Mutation M204I | 53 µM
CNC(=O)c1ccc(-n2c(-n3nc(C)cc3C)nc3c(c2=O)C[C@@H](C)N(C(=O)c2ccc(Br)c(C(F)(F)F)c2)C3)cc1Cl | HepG2.117 | EC50 | PCR | Genotype D | ≤0.05 µM
Cc1cc(NC(=O)N2CCc3nn4c(c3C2)C(=O)N(C)CC(F)(c2ccccc2)C4)ccc1F | HepG2.2.15 | EC50 | fluorescence | - | 176 µM
Nc1ncnc2c1ncn2[C@H]1CC[C@@H](CO)O1 | HepG2 2.2.15 | EC50 | - | - | >10 µM
CN1CC(c2ccn(C)n2)Cn2nc3c(c2C1=O)CN(C(=O)Nc1ccc(F)c(Cl)c1)CC3 | HepG2.2.15 | EC50 | fluorescence | - | 160 µM
Cc1cc(C)n(-c2nc3c(c(=O)n2-c2ccc4c(cnn4C)c2)C[C@@H](C)N(C(=O)c2ccc(Br)c(C(F)(F)F)c2)C3)n1 | HepG2.117 | EC50 | PCR | Genotype D | ≤0.05 µM
COc1ccc(-n2c(C(=O)NC(C)c3ccc(F)cc3)c3n(c2=O)CCN(C(=O)c2ccc(Br)c(Cl)c2)C3)cc1 | HepG2.117 | EC50 | PCR | - | 0.1–0.5 µM
C=C1[C@@H](n2cnc3c(N)ncnc32)C[C@H](O)[C@]1(CO)CF | HepG2.117 | EC50 | PCR | - | >15.5 µM
CS(=O)(=O)N1CC(C(=O)NC2CC3(C2)CC(c2nc4cc(Cl)ccc4o2)C3)C1 | Primary human hepatocytes | EC50 | luminescence | - | 4.3 µM
CCNC(=O)C(=O)N1CCC(NS(=O)(=O)c2c(Cl)c(C(=O)Nc3cc(F)c(F)c(F)c3)n3c2CCC3)CC1 | HepAD38 cells | EC50 | PCR | - | <0.1 µM
Cc1cc(C)n(-c2nc3c(c(=O)n2-c2ccc(OC4CC(O)C4)cc2)C[C@@H](C)N(C(=O)c2ccc(Br)c(C(F)(F)F)c2)C3)n1 | HepG2.117 | EC50 | PCR | Genotype D | ≤0.05 µM
Cc1cn([C@@H]2C[C@@](C)(CO)CO2)c(=O)[nH]c1=O | - | EC50 | - | - | >100 µM
O=c1ccn(C[C@H]2C[C@H]2CO)c(=O)[nH]1 | 2.2.15 | EC50 | - | - | >10 µM
C[C@@H]1Cc2nn3c(c2CN1C(=O)Nc1ccc(F)c(C#N)c1)C(=O)N(C)C[C@H](c1ccon1)C3 | HepG2.2.15 | EC50 | fluorescence | - | 27 µM
C[C@]1(CO)CO[C@@H](n2cnc3c(=O)[nH]c(N)nc32)C1 | - | EC50 | - | - | >100 µM
C=C1CN(Cc2ccccc2)C(=O)c2c3n(c(=O)n2C1)CCN(C(=O)c1ccc(Br)c(Cl)c1)C3 | HepG2.117 | EC50 | PCR | - | 0.1–0.5 µM
C[C@]1(CO)CO[C@@H](n2cnc3c(=O)[nH]cnc32)C1 | - | EC50 | - | - | >100 µM
COC1OC(CSc2ncc(C)c(=O)[nH]2)C(O)C1O | HepG2 2.2.15 | EC50 | ELISA | - | >100 µM
CNC(=O)C(=O)N1CC[C@@H](NS(=O)(=O)c2c(Cl)c(C(=O)Nc3cc(F)c(F)c(F)c3)n(C)c2Cl)C1 | HepAD38 cells | EC50 | PCR | - | <0.1 µM
COC(=O)[C@H](C)NP(=O)(OC[C@H]1O[C@@H](n2cnc3c(N)ncnc32)CC1F)Oc1ccccc1 | HepG2 2.2.15 | EC50 | - | - | 0.018 µM
O=C(NCc1ccccc1)c1c2n(c(=O)n1-c1cccc(F)c1)CCN(C(=O)c1ccc(Br)c(Cl)c1)C2 | HepG2.117 | EC50 | PCR | - | 0.5–5 µM
COC(=O)C1=C(CN2CCC3(CN(C)CCO3)C2)NC(c2ncc(F)cc2F)=N[C@H]1c1ccc(F)cc1Cl | HepG2.2.15 | EC50 | - | - | 0.05 µM
Cc1cc(C)n(-c2nc3c(c(=O)n2-c2ccc(OC[C@H](O)CO)cc2)C[C@@H](C)N(C(=O)c2ccc(Br)c(C(F)(F)F)c2)C3)n1 | HepG2.117 | EC50 | PCR | Genotype D | ≤0.05 µM
[N-]=[N+]=N[C@]1(CO)O[C@@H](n2ccc(N(CCO)CCO)nc2=O)[C@@H](F)[C@@H]1O | HepG2.2.15 | EC50 | ELISA / antigen | - | 0.25 µM
COc1nc(N)nc2c1ncn2[C@H]1CO[C@@H](CO)O1 | AD38 | EC90 | - | Wild | >100 µM
Cc1cc(C)n(-c2nc3c(c(=O)n2-c2ccc(NC[C@@H](O)CO)nc2)C[C@@H](C)N(C(=O)c2ccc(Br)c(C(F)(F)F)c2)C3)n1 | HepG2.117 | EC50 | PCR | Genotype D | 0.05–0.5 µM
CCc1cn(COCCO)c(=S)[nH]c1=O | D88 | EC50 | - | Mutations L180M M204V | 40 µM
Cc1cc(C)n(-c2nc3c(c(=O)n2-c2ccc(OC[C@@H](C)O)cc2)C[C@@H](C)N(C(=O)c2ccc(Br)c(C(F)(F)F)c2)C3)n1 | HepG2.117 | EC50 | PCR | Genotype D | ≤0.05 µM
CNc1ncnc2c1ncn2[C@H]1CC(F)[C@@H](CO)O1 | HepG2 2.2.15 | EC50 | - | - | >200 µM